Source: patent US20100099614A1, “Antimicrobial Peptides and Methods of Use” (priority 2008, published 2010)

Key:
Zygomycota fungi = conditions: for Therapeutic index Fold (fold improvement compared to that of D4), Zygomycota fungi: relative to D4
[1] = test system: Mycobacterium tuberculosis strain H37Rv
Gram-positive bacteria = conditions: for Therapeutic index Fold (fold improvement compared to that of D4), Gram-positive bacteria: relative to D4
Gram-negative bacteria = experiment: Antibacterial activity (MIC), microtiter dilution; type: cell-based
Method: MICs were determined by a standard microtiter dilution method in Mueller Hinton Broth (MHB). Serial dilutions of the 10× compound were added to the microtiter plates in a volume of 10 μL followed by 90 μL of bacteria for an inoculum of 5×10^5 colony-forming units (CFU)/mL. The plates were incubated at 37° C. for 24 h, and the MICs were determined as the lowest peptide concentration that inhibited growth. […]
Alternatively; minimal inhibitory concentrations were determined using a standard microtiter dilution method in a Mueller-Hinton (MH) medium. Briefly, cells were grown overnight at 37° C. in MH broth and diluted in the same medium. Serial dilutions of the peptides were added to the microtiter plates in a volume of 100 μl followed by 10 μl of bacteria for an initial cell concentration of 1×10^5 CFU/ml. Plates were incubated at 37° C. for 24 hours and MICs determined as the lowest peptide concentration that inhibited growth.

[2] = ratio of HC50 (μg/mL) over geometric mean MIC50 (μg/mL)
[3] = further experiments, relative to D4
[4] = ratio of HC50 (μg/mL) over geometric mean MIC (μg/mL)

Compound	Therapeutic index HC50/MIC50, Zygomycota fungi (Zygomycota fungi; [2])	Therapeutic index Fold (fold improvement compared to that of D4), Zygomycota fungi (Zygomycota fungi)	Therapeutic index to H37Rv strain Fold (compared to D4) [1, 3]	Therapeutic index HC50/MIC, Gram-positive bacteria (Gram-positive bacteria; [4])	Therapeutic index Fold (fold improvement compared to that of D4), Gram-positive bacteria (Gram-positive bacteria)	Therapeutic index HC50/MIC50, Ascomycota fungi (Ascomycota fungi; [2])	Therapeutic index MHC50/MIC ([1]; MHC50 (human red blood cells) over MIC (M. tuberculosis))	Therapeutic index to H37Rv strain HC50/MIC ([1]; further experiments)	Therapeutic index Fold (fold improvement compared to that of D4) ([1]; relative to D4)	increase in therapeutic index relative to peptide D4 (Gram-negative bacteria; gram-negative bacteria)	Therapeutic index HC50/MIC, Gram-negative bacteria (Gram-negative bacteria; [4])	Therapeutic index Fold (fold improvement compared to that of D4), Gram-negative bacteria (Gram-negative bacteria; relative to D4)	increase in therapeutic index relative to peptide D4 (Gram-positive bacteria; gram-positive bacteria)	increase in therapeutic index relative to D4 (Ascomycota fungi; Ascomycota fungi)	therapeutic index (MHC/MIC) (Gram-negative bacteria; gram-negative bacteria)	therapeutic index (MHC/MIC) (Gram-positive bacteria; gram-positive bacteria)
CC[C@@H](C)[C@@H](NC(=O)[C@@H](C)NC(=O)[C@@H](CCCCN)NC(=O)[C@@H](CC(C)C)NC(=O)[C@@H](C)NC(=O)[C@H](NC(=O)[C@@H](Cc1c[nH]cn1)NC(=O)[C@@H](CC(C)C)NC(=O)[C@H](NC(=O)[C@H](NC(=O)[C@@H](CCCCN)NC(=O)[C@@H](CCCCN)NC(=O)[C@@H](C)NC(=O)[C@@H](CO)NC(=O)[C@@H](CCCCN)NC(=O)[C@@H](Cc1ccccc1)NC(=O)[C@H](NC(=O)[C@@H](CCCCN)NC(=O)[C@@H](CC(C)C)NC(=O)[C@@H](Cc1ccccc1)NC(=O)[C@@H](CO)NC(=O)[C@@H](CCCCN)NC(=O)[C@@H](Cc1c[nH]c2ccccc12)NC(=O)[C@@H](CCCCN)NC(C)=O)[C@H](C)O)[C@H](C)O)C(C)C)[C@H](C)O)C(=O)N[C@H](CO)C(=O)N[C@H](CO)C(N)=O [D1]	109.9	1569 fold	293 fold	55.7	255 fold	34.9										
CC[C@@H](C)[C@@H](NC(=O)[C@@H](CC(C)C)NC(=O)[C@@H](CCCCN)NC(=O)[C@@H](CC(C)C)NC(=O)[C@@H](CC(C)C)NC(=O)[C@H](NC(=O)[C@@H](Cc1c[nH]cn1)NC(=O)[C@@H](CC(C)C)NC(=O)[C@@H](CCCCN)NC(=O)[C@H](NC(=O)[C@@H](CCCCN)NC(=O)[C@@H](CCCCN)NC(=O)[C@@H](CC(C)C)NC(=O)[C@@H](CO)NC(=O)[C@@H](CCCCN)NC(=O)[C@@H](Cc1ccccc1)NC(=O)[C@H](NC(=O)[C@@H](CCCCN)NC(=O)[C@@H](CC(C)C)NC(=O)[C@@H](Cc1ccccc1)NC(=O)[C@@H](CO)NC(=O)[C@@H](CCCCN)NC(=O)[C@@H](Cc1c[nH]c2ccccc12)NC(=O)[C@@H](CCCCN)NC(C)=O)[C@H](C)O)[C@H](C)O)[C@H](C)O)C(=O)N[C@H](CO)C(=O)N[C@H](CO)C(N)=O [D5]		201 fold	66 fold		22 fold		1.3	1.3	61 fold	28 fold	4.4	28 fold	22 fold	11 fold		
Ac-KWKSFLKTFKSAVKTVLHTALKAISS-NH2 [V681, reference compound]															1.8	2.5
